Data source: PubChem BioAssay AID624099 (ICCB-Longwood, 2012)
Here is one part, drawn at random, of about 21,000 reagents. In the full data, 497 (2.4%) are marked active. 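Higher z means weaker E2 silencing; only reporter increases were scored, and knock-downs that hurt cell survival may mask genuine repressor factors.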 The numbers tell different reagents against one gene apart.

- Test: 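Host factors E2 relies on to silence an HPV18 LCR reporter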 (primary screen)
- System: human C33A cervical carcinoma cells (HPV-negative) stably expressing BPV1 E2 and an HPV18 LCR luciferase reporter
- Reagents: siRNA pool against human genes, 40 nM
- Time to read-out: 72 h
- Measured: 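HPV18 LCR reporter light per well, converted to plate-wise z-scores that exclude control wells, and averaged over triplicate plates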
- Scale: mean z-score and z-score: higher = stronger reporter signal, weaker E2 silencing
- Call rule: 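Hit if mean z-score reaches 2 and two or more of three replicate z-scores also reach 2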

| mean z-score | z-score, replicate A | z-score, replicate B | z-score, replicate C | Call | target gene | pool no. |
| --- | --- | --- | --- | --- | --- | --- |
| -0.79 | -0.84 | -0.63 | -0.9 | inactive | SAMSN1 (SAM domain, SH3 domain and nuclear localization signals 1) | 1 |
| 0.53 | 0.21 | 0.49 | 0.88 | inactive | SAMSN1 (SAM domain, SH3 domain and nuclear localization signals 1) | 2 |
| 0.99 | 1.13 | 0.92 | 0.93 | inactive | PRR18 (proline rich 18) | 1 |
| 0.05 | -0.25 | 0.4 | 0.01 | inactive | RRP36 (ribosomal RNA processing 36) | 1 |
| -0.32 | -0.05 | -0.48 | -0.44 | inactive | LOC387846 (retired record) | 1 |
| 1.31 | 1.55 | 1.16 | 1.24 | inactive | SLC17A2 | 1 |
| 0.66 | 0.28 | 0.95 | 0.74 | inactive | ZDHHC17 (zDHHC palmitoyltransferase 17) | 1 |
| -1.23 | -1.24 | -1.14 | -1.3 | inactive | PPARGC1A (PPARG coactivator 1 alpha) | 1 |
| -0.08 | -0.1 | -0.14 | 0 | inactive | TAOK3 (TAO kinase 3) | 1 |
| 0.11 | 0.05 | 0.11 | 0.19 | inactive | PARP16 (poly(ADP-ribose) polymerase family member 16) | 1 |
| -3.47 | -3.44 | -3.43 | -3.54 | inactive | CPA2 (carboxypeptidase A2) | 1 |
| -0.6 | -0.8 | -0.4 | -0.61 | inactive | PSMB5 (proteasome 20S subunit beta 5) | 1 |
| -0.36 | -0.36 | -0.56 | -0.15 | inactive | ALLC (allantoicase) | 1 |
| -1.08 | -1.12 | -1.15 | -0.98 | inactive | ZNF292 (zinc finger protein 292) | 1 |
| 1.02 | 1.01 | 0.86 | 1.2 | inactive | PCNX1 (pecanex 1) | 1 |
| 1.88 | 1.55 | 1.82 | 2.26 | inactive | LOC388142 (retired record) | 1 |
| -0.38 | -0.4 | -0.51 | -0.22 | inactive | CD82 (CD82 molecule) | 1 |
| -0.75 | -0.69 | -0.93 | -0.64 | inactive | STAT3 (signal transducer and activator of transcription 3) | 1 |
| 0.93 | 0.91 | 0.74 | 1.13 | inactive | OR5H14 (olfactory receptor family 5 subfamily H member 14) | 1 |
| 1.24 | 1.01 | 1.64 | 1.06 | inactive | ADAMTS4 (ADAM metallopeptidase with thrombospondin type 1 motif 4) | 1 |
| -0.3 | -0.38 | 0.02 | -0.54 | inactive | FLJ44674 (retired record) | 1 |
| 1.42 | 1.62 | 1.22 | 1.41 | inactive | SPMIP3 (sperm microtubule inner protein 3) | 1 |
| -0.95 | -0.99 | -1.04 | -0.84 | inactive | EIF5A2 (eukaryotic translation initiation factor 5A2) | 1 |
| 1.21 | 1.57 | 1.23 | 0.83 | inactive | ZNF697 (zinc finger protein 697) | 1 |
| -0.18 | -0.1 | -0.25 | -0.2 | inactive | TAC1 (tachykinin precursor 1) | 1 |
| -0.72 | -0.87 | -0.66 | -0.63 | inactive | SAP30BP (SAP30 binding protein) | 1 |
| -0.62 | -0.67 | -0.57 | -0.61 | inactive | TAAR8 (trace amine associated receptor 8) | 1 |
| -0.42 | -0.13 | -0.35 | -0.77 | inactive | SLC4A5 | 1 |
| 0.04 | -0.01 | 0.04 | 0.09 | inactive | LOC199897 (retired record) | 1 |
| 0.04 | 0.33 | -0.19 | -0.03 | inactive | GAGE1 (G antigen 1) | 1 |
| 0.46 | 0.4 | 0.34 | 0.65 | inactive | C22orf15 (chromosome 22 open reading frame 15) | 1 |
| -2.11 | -2.44 | -2.11 | -1.78 | inactive | SLC39A12 | 1 |
| 0.54 | 0.67 | 0.67 | 0.29 | inactive | GNB3 (G protein subunit beta 3) | 1 |
| 1.18 | 1.01 | 1.21 | 1.32 | inactive | FKBP14 (FKBP prolyl isomerase 14) | 1 |
| 0.13 | 0.01 | 0.25 | 0.13 | inactive | GPR75 (G protein-coupled receptor 75) | 1 |
| -0.72 | -0.88 | -0.84 | -0.45 | inactive | AEBP2 (AE binding protein 2) | 1 |
| -0.08 | 0.18 | -0.33 | -0.08 | inactive | TSPAN9 (tetraspanin 9) | 1 |
| 1.06 | 0.77 | 1.29 | 1.13 | inactive | TSPAN9 (tetraspanin 9) | 2 |
| 0.37 | -0.1 | 0.22 | 0.97 | inactive | TSHZ3 (teashirt zinc finger homeobox 3) | 1 |
| -0.39 | -0.57 | 0 | -0.61 | inactive | STYXL2 (serine/threonine/tyrosine interacting like 2) | 1 |
| 0.92 | 1.18 | 0.8 | 0.77 | inactive | KLHL38 (kelch like family member 38) | 1 |
| -1.34 | -1.35 | -1.12 | -1.56 | inactive | MTUS2 (microtubule associated scaffold protein 2) | 1 |
| 0.24 | -0.06 | 0.38 | 0.38 | inactive | EEIG2 (EEIG family member 2) | 1 |
| 0.12 | 0.24 | 0.28 | -0.17 | inactive | MIF4GD (MIF4G domain containing) | 1 |
| -1.87 | -2.06 | -1.69 | -1.84 | inactive | ZNF584 (zinc finger protein 584) | 1 |
| -0.61 | -0.8 | -0.27 | -0.76 | inactive | SYTL5 (synaptotagmin like 5) | 1 |
| 0.15 | -0.36 | -0.07 | 0.89 | inactive | CCDC90B (coiled-coil domain containing 90B) | 1 |
| 0.07 | 0.5 | -0.34 | 0.04 | inactive | TDRD7 (tudor domain containing 7) | 1 |
| -0.26 | -0.04 | -0.32 | -0.41 | inactive | RPAP3 (RNA polymerase II associated protein 3) | 1 |
| 1.29 | 1.3 | 1.26 | 1.31 | inactive | ZBBX (zinc finger B-box domain containing) | 1 |
| 0.6 | 0.74 | 0.39 | 0.69 | inactive | C10orf88B (C10orf88B (pseudogene)) | 1 |
| 0.29 | 0.62 | -0.11 | 0.36 | inactive | LINC02577 (long independently transcribed non-coding RNA 2577) | 1 |
| 0.1 | 0.03 | -0.03 | 0.3 | inactive | AMHR2 (anti-Mullerian hormone receptor type 2) | 1 |
| -0.31 | -0.11 | -0.26 | -0.57 | inactive | SMAD7 (SMAD family member 7) | 1 |
| -0.83 | -0.47 | -1.13 | -0.91 | inactive | ADAM20 (ADAM metallopeptidase domain 20) | 1 |
| -0.21 | -0.38 | -0.2 | -0.03 | inactive | CLN5 (CLN5 lysosomal BMP synthase) | 1 |
| 1.54 | 1.05 | 1.76 | 1.79 | inactive | LRRC37A6P (leucine rich repeat containing 37 member A6, pseudogene) | 1 |
| -0.28 | -0.31 | -0.34 | -0.19 | inactive | H1-8 (H1.8 linker histone) | 1 |
| 0.42 | 0.4 | 0.33 | 0.54 | inactive | RNASE11 (ribonuclease A family member 11 (inactive)) | 1 |
| -0.13 | -0.15 | -0.13 | -0.12 | inactive | ATP6V1H (ATPase H+ transporting V1 subunit H) | 1 |
| -0.05 | -0.05 | 0.25 | -0.35 | inactive | TRPC1 | 1 |
| -0.15 | -0.21 | -0.24 | 0.01 | inactive | LCNL1 (lipocalin like 1) | 1 |
| 1.06 | 1.17 | 0.96 | 1.07 | inactive | CCDC116 (coiled-coil domain containing 116) | 1 |
| -0.25 | -0.42 | 0.09 | -0.43 | inactive | TACSTD2 (tumor associated calcium signal transducer 2) | 1 |
| -0.22 | -0.22 | -0.17 | -0.27 | inactive | DHX9 (DExH-box helicase 9) | 1 |
| -1.88 | -1.55 | -2.1 | -1.99 | inactive | SELENOH (selenoprotein H) | 1 |
| 0.87 | 0.63 | 0.68 | 1.3 | inactive | LOC730118 (retired record) | 1 |
| 0.79 | 0.64 | 1.06 | 0.68 | inactive | GUCY1B1 (guanylate cyclase 1 soluble subunit beta 1) | 1 |
| 0.13 | 0.14 | 0.07 | 0.19 | inactive | ZNF264 (zinc finger protein 264) | 1 |
| -0.61 | -0.72 | -0.64 | -0.46 | inactive | MMP16 (matrix metallopeptidase 16) | 1 |
| 1.66 | 1.4 | 1.95 | 1.64 | inactive | SOX30 (SRY-box transcription factor 30) | 1 |
| -0.81 | -0.7 | -1.01 | -0.74 | inactive | ISCA1P1 (iron-sulfur cluster assembly 1 pseudogene 1) | 1 |
| -1.13 | -1.26 | -1.44 | -0.69 | inactive | CACNG7 (calcium voltage-gated channel auxiliary subunit gamma 7) | 1 |
